# Laboratory results published in PMC9571290, “Preliminary Structure–Activity Relationship Study of the MMV Pathogen Box Compound MMV675968 (2,4-Diaminoquinazoline) Unveils Novel Inhibitors of Trypanosoma brucei brucei” (Molecules, 2022).
# Several values for one entry are separate records, joined by “and”; a condition that tells them apart may be missing. Identical values can stand only once.
# System: bloodstream forms of Trypanosoma brucei brucei
# Experiment: resazurin-based antitrypanosomal inhibition assay
# Type: cell-based
# Conditions: IC50 ratio
# Description: Parasites were axenically cultivated in sterile vented flasks containing complete Hirumi’s modified Iscove’s medium 9 (HMI-9) [500 mL IMDM (Iscove’s modified Dulbecco’s medium) (Gibco, Waltham, MA, USA) supplemented with 10% (v/v) heat-inactivated fetal bovine serum (HIFBS) (Sigma Aldrich), 10% (v/v) serum plus (Sigma Aldrich), HMI-9 supplement (1 mM hypoxanthine, 0.16 mM thymidine, 50 µM bathocuproine disulfonic acid, 1.5 mM cysteine, 1.25 Mm pyruvic acid, 0.2 mM 2-mercaptoethanol (Sigma Aldrich)), and 1% (v/v) penicillin–streptomycin (Sigma Aldrich) and incubated at 37 °C in a 5% CO2 atmosphere.
# The in vitro inhibitory potency of the 400 MMVPB compounds against bloodstream forms of Trypanosoma brucei brucei was evaluated using the resazurin-based inhibition assay as previously described. Briefly, parasites at their mid-logarithmic growth phase were counted, and the cell density was adjusted with fresh complete HMI-9 medium to 2 × 10^5 trypanosomes per mL. Then, 90 µL of parasite suspension was then distributed into the wells of 96-well flat-bottomed plates containing 10 µL of compounds for a final test concentration of 10 µM. […] Each assay plate was set up in duplicate and repeated two times. The percent parasite inhibition was determined for each compound based on fluorescence readouts relative to the mean fluorescence of negative control wells.
# y = 100/[1+ 10^(logIC50/99-x)H], where H is the hill coefficient or slope factor [60].
row,Compound,fold more active than the parent hit 1
1,"Nc1nc(N)c2cc(CNc3cc(Cl)ccc3Cl)ccc2n1 [Analog 10, 6-(((2,5-dichlorophenyl)amino)methyl)quinazoline-2,4-diamine]",~ 58 fold
2,"COc1ccccc1NCc1ccc2nc(N)nc(N)c2c1 [Analog 7, 6-(((2-methoxyphenyl)amino)methyl)quinazoline-2,4-diamine]",~ 43 fold

# Same assay, conditions: congeners 3 and 2
row,Compound,fold increase in antitrypanosomal potency with respect to corresponding chlorinated congener
1,COc1ccc(NCc2ccc3nc(N)nc(N)c3c2)cc1OC [Analog 6],4 fold
2,"COc1ccccc1NCc1ccc2nc(N)nc(N)c2c1 [Analog 7, 6-(((2-methoxyphenyl)amino)methyl)quinazoline-2,4-diamine]",53 fold and ~ 53 fold

# System: Vero cells
# Experiment: cytotoxicity against Vero cells (resazurin viability assay)
# Conditions: Table 1; CC50 (Vero cells)/IC50 (T. b. brucei)
# Description: The resulting pellet was resuspended and counted in a Neubauer chamber in the presence of trypan blue to exclude nonviable cells colored in blue. Once the cell load was estimated, they were either used for the next passage in a new flask or processed for the cytotoxicity assay.
# Briefly, Vero cells at a density of 10^4 cells per well were plated in 100 µL of complete DMEM and incubated overnight to allow cell attachment. Plates were then controlled under an inverted fluorescence microscope (Lumascope LS520) to ensure adherence, sterility and cell integrity. Thereafter, culture medium from each well was carefully emptied, and plates were filled with 90 µL of fresh complete medium followed by the addition of 10 µL of serial 5-fold dilutions of compound solutions. […] Fluorescence was then read using a Magelan Infinite M200 fluorescence multiwell plate reader (Tecan) with excitation and emission wavelengths of 530 and 590 nm, respectively. The percentage of cell viability was calculated from readouts, and the median cytotoxic concentration (CC50) for each compound was deduced from concentration–response curves using GraphPad Prism 8.0 software as described above. Selectivity indexes were then determined for each test substance as follows: SI = CC50(Vero cells)/IC50(T. brucei brucei).
row,Compound,SI Vero Cells
1,"CCN(CC)CCCCCCNc1cc(OC)cc2c(C)ccnc12 [MMV000063, Sitamaquine, reference compound]",>66
2,"CC1CS(=O)(=O)CCN1/N=C/c1ccc([N+](=O)[O-])o1 (stereo not shown) [MMV001499, Nifurtimox, reference compound]",>539
3,"Cc1ccc(C(=O)Nc2ccc(S(=O)(=O)O)c3cc(S(=O)(=O)O)cc(S(=O)(=O)O)c23)cc1NC(=O)c1cccc(NC(=O)Nc2cccc(C(=O)Nc3cc(C(=O)Nc4ccc(S(=O)(=O)O)c5cc(S(=O)(=O)O)cc(S(=O)(=O)O)c45)ccc3C)c2)c1 [MMV637953, Suramine, reference compound]",>1128
4,"OC(c1cc(C(F)(F)F)nc2c(C(F)(F)F)cccc12)C1CCCCN1 (stereo not shown) [MMV000016, Mefloquine, reference compound]",6.89
5,"O=C(Cn1ccnc1[N+](=O)[O-])NCc1ccccc1 [MMV688773, Benznidazole, reference compound]",>302

# Same assay, conditions: Table 2; CC50 (Vero cells)/IC50 (T. b. brucei)
row,Compound,SI
1,c1ccc(Oc2ccc(-c3cc(N4CCNCC4)[nH]n3)cc2)cc1 [MMV687706],21
2,N=C(N)c1ccc(-c2cc(-c3ccccc3)on2)cc1 [MMV688514],5
3,CO[C@@H](C(=O)N1Cc2[nH]nc(NC(=O)c3ccc(N4CCN(C)CC4)cc3)c2C1)c1ccccc1 [MMV676600],>154
4,COc1ccc(C(=N)N)cc1-c1cn(-c2ccc(C(=N)N)cc2)nn1 [MMV675998],>296
5,Cc1nn(C)c(C)c1NS(=O)(=O)c1c(Cl)cc(-c2ccnc(N3CCNCC3)c2)cc1Cl [MMV688180],">42,826"
6,CC1CCCCN1C(=O)NCCc1coc(-c2ccc(F)cc2)n1 (stereo not shown) [MMV688797],>1598
7,Cc1ncc(-c2ccnc(Nc3ccc(S(C)(=O)=O)cc3)n2)n1C(C)C [MMV676604],232
8,COc1ccc(C2=NN(C3CCCCCC3)C(=O)[C@@H]3CC=CC[C@H]23)cc1OCCCCOc1ccc(-c2nn[nH]n2)cc1 [MMV690027],>36
9,COc1ccc(S(=O)(=O)Nc2ccc(CN3CCN(C(=O)c4cccc(C#N)c4)CC3)cc2)cc1 [MMV689029],>76
10,O=C(Nc1ccc2c(c1)B(O)OC2)c1ccccc1C(F)(F)F [MMV652003],>1557.87
11,O=C(NCc1nnc2n1CCCCC2)c1ccc(-c2ccc(F)cc2)o1 [MMV688796],>3416
12,CCCCN(CCCC)c1c(C#N)cc(S(=O)(=O)Nc2ccccc2)cc1C#N [MMV688467],>32
13,CC(=O)Nc1ccc(-c2noc(CC3CCCN(Cc4cccc(F)c4C)C3)n2)cc1 (stereo not shown) [MMV689061],>54
14,N=C(N)Nc1ccc(-c2ccc(-c3ccc(N=C(N)N)c(Cl)c3)o2)cc1Cl [MMV688271],>93
15,CNC(=O)C1Cc2ccccc2N1C(=O)Cc1ccc(F)cc1 (stereo not shown) [MMV188296],>98
16,Cc1nc(-c2ccccn2)nc(N2CCC(Cc3ccccc3)C2)c1Cl (stereo not shown) [MMV659004],>50
17,NCCN(C(=O)c1ccc(Cl)cc1Cl)c1ccc(OCc2ccc(Cl)cc2)cc1 [MMV688371],5
18,Cc1cccnc1NC(=O)c1cccc(OCc2c(C)noc2C)c1 [MMV688793],>255
19,O=C(NCCc1ccn(-c2ccccc2)n1)C1CCCCC1 [MMV688795],>282

# Same assay, conditions: Table 3; CC50 (Vero cells)/IC50 (T. b. brucei)
row,Compound,SI
1,CCOC(=O)c1c(NC(=O)c2c(F)c(F)c(F)c(F)c2F)sc(C(N)=O)c1C [MMV153413],>57
2,Cc1cnc(N2CCN[C@@H](Cc3ccccc3)C2)nc1Oc1ccc(-n2ccnc2)cc1 [MMV687765],>44
3,Brc1cncc(-c2cc(NCCCn3ccnc3)nc(-c3ccccc3)n2)c1 [MMV661713],>51
4,CN1CCC(NCc2cccc(-c3ccc(S(=O)(=O)NCc4ccccc4)cc3)c2)CC1 [MMV022029],8
5,CC(C)n1nc(-c2cc3c(Cl)cccc3[nH]2)c2c(N)ncnc21 [MMV688417],3
6,O=C(NCCN1CCCC1)c1cc(NCCCCN2CCC(F)(F)CC2)nc2ccc(Cl)cc12 [MMV667494],>75
7,Nc1nc2cc(-c3cncc(Oc4ccc(F)cc4)c3)ccc2[nH]1 [MMV687248],>199
8,O=C(Nc1ccc(C(F)(F)F)c(C(F)(F)F)c1)c1cc(Cl)ccc1O [MMV687807],23
9,CCc1ccc(S(=O)(=O)Nc2cc(CN3CCN(CCC(C)C)CC3)ccc2C)cc1 [MMV688124],>34
10,COc1cc(-c2cc(-c3ccc(S(C)(=O)=O)cc3)cnc2N)ccc1O [MMV010576],>66
11,OCCc1ccc(Nc2nccc(-c3nnc4ccccn34)n2)cc1 [MMV028694],6
12,CC(=O)N1CCc2cc3nc(C)cc(C)c3cc21 [MMV054312],>77
13,COc1cccc(-c2nc3c(N4CCCC4)cccc3n2CC2CCCN2)n1 (stereo not shown) [MMV687703],>56
14,CN(C)c1cc(NC(=O)Nc2ccccc2)c2ccccc2n1 [MMV006901],1.73
15,O=C(Nc1ccc(N2CCNCC2)cc1)c1ccn2ncc(-c3cccc(Cl)c3)c2n1 [MMV022478],6
16,CNc1nnc(Sc2cnn(-c3ccccc3)c(=O)c2Cl)s1 [MMV688763],10
17,Cn1c(=O)c2c(S(C)(=O)=O)snc2n(C)c1=O [MMV687251],3
18,COc1ccc(CCN2CCC(NCc3cccc(N(C)C)c3)CC2)cc1 [MMV011511],>11
19,c1cncc(NCc2ccc(-c3cc4ccncc4cc3OC3CCNCC3)s2)c1 [MMV023969],3
20,Nc1nccc2ccc(-c3ccc4nccn4c3)cc12 [MMV023233],3
21,O=C(C(Cc1c[nH]c2ccccc12)NS(=O)(=O)c1ccc(Cl)cc1)N1CCCCC1 (stereo not shown) [MMV085210],>107
22,O=C(Nc1ccccc1)c1ccc(-c2cc3ccncc3cc2OC2CCNCC2)s1 [MMV024035],19
23,CCOc1ccc2cc(-c3nn(CC4CCN(C)CC4)c4ncnc(N)c34)ccc2c1 [MMV688854],1.57
24,O=C(Nc1ccc(N2CCNCC2)nc1)c1oc(-c2ccccc2)nc1C(F)(F)F [MMV024937],11
25,NC(=O)c1cc(-c2ccsc2)ccc1OCCOc1ccccc1 [MMV687138],>199
26,CN1CCN(CCCOc2ncc(Nc3ncc(-c4ccc(C(F)(F)F)c(F)c4)nc3C(N)=O)cn2)CC1 [MMV687812],1.5

# Same assay, conditions: Table 3; CC50 (Vero cells)/IC50 (T. b. brucei); listed as MMV675968
row,Compound,SI
1,"COc1ccc(OC)c(NCc2ccc3nc(N)nc(N)c3c2Cl)c1 [Analog 1, 2,4-diamino-5-chloro-6-[(2,5-dimethoxyanilino)methyl]quinazoline]",> 35 and >35.6

# Same assay, conditions: Table 4; CC50 (Vero cells)/IC50 (T. b. brucei)
row,Compound,SI
1,COc1ccc(NCc2ccc3nc(N)nc(N)c3c2)cc1 [Analog 8],123.44
2,COc1ccc(NCc2ccc3nc(N)nc(N)c3c2)cc1OC [Analog 6],>178.98
3,COc1ccc(NCc2ccc3nc(N)nc(N)c3c2Cl)cc1OC [Analog 2],7.68
4,Cc1ccccc1NCc1ccc2nc(N)nc(N)c2c1Cl [Analog 5],> 43.47
5,COc1ccc(NC(=O)c2ccc3nc(N)nc(N)c3c2)cc1 [Analog 11],5.60
6,COc1ccccc1NCc1ccc2nc(N)nc(N)c2c1Cl [Analog 3],6.41
7,COc1ccc(NCc2ccc3nc(N)nc(N)c3c2Cl)cc1 [Analog 4],7.05
8,"Nc1nc(N)c2cc(CNc3cc(Cl)ccc3Cl)ccc2n1 [Analog 10, 6-(((2,5-dichlorophenyl)amino)methyl)quinazoline-2,4-diamine]",~ 1737 and 1737.44
9,Cc1ccccc1NCc1ccc2nc(N)nc(N)c2c1 [Analog 9],115.97
10,"COc1ccccc1NCc1ccc2nc(N)nc(N)c2c1 [Analog 7, 6-(((2-methoxyphenyl)amino)methyl)quinazoline-2,4-diamine]",412.75

# Same assay, conditions: Table 4; CC50 (Vero cells)/IC50 (T. b. brucei); listed as MMV1578445
row,Compound,SI
1,"Nc1nc(N)c2cc(CNc3cc(Cl)ccc3Cl)ccc2n1 [Analog 10, 6-(((2,5-dichlorophenyl)amino)methyl)quinazoline-2,4-diamine]",1737

# Same assay, conditions: Table 4; CC50 (Vero cells)/IC50 (T. b. brucei); listed as MMV1578467
row,Compound,SI
1,"COc1ccccc1NCc1ccc2nc(N)nc(N)c2c1 [Analog 7, 6-(((2-methoxyphenyl)amino)methyl)quinazoline-2,4-diamine]",412
